From patent US20130289246A1

Target: HA of A/Singapore/1/1957 (H2N2), on VLP (Influenza A virus (H2N2))
Experiment: cell-based or functional assay

With murine hybridoma mAb S139/1 (antibody) the HAI activity was greater than 50 µg/mL.
